Record: PubChem BioAssay AID624099 (ICCB-Longwood, 2012)
Aim: 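Host factors E2 relies on to silence an HPV18 LCR reporter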 (primary screen). Cell system: human C33A cervical carcinoma cells (HPV-negative) stably expressing BPV1 E2 and an HPV18 LCR luciferase reporter. Knock-down reagent: siRNA pool against human genes, 40 nM. Duration: 72 h. Measurement: 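Per-well luciferase luminescence, z-scored on each plate against the plate mean and SD with control wells left out, then averaged across three replicate plates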. Scale: mean z-score and z-score: higher = stronger reporter signal, weaker E2 silencing. Rule for the call: 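Hit if mean z-score reaches 2 and two or more of three replicate z-scores also reach 2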.
This is one part, drawn at random, of about 21,000 reagents. 497 of them (2.4%) were called active. 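Higher z means weaker E2 silencing; only reporter increases were scored, and knock-downs that hurt cell survival may mask genuine repressor factors.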 Unmarked entries are inactive. No sequences are given here.

For CIAO2B (cytosolic iron-sulfur assembly component 2B) [SID134324058] the deposit lists mean z-score -0.57; z-score, replicate A = -0.27; z-score, replicate B = -0.77; z-score, replicate C = -0.68. C19orf47 (chromosome 19 open reading frame 47) [SID134322406] scored mean z-score 0.49; z-score, replicate A = 0.85; z-score, replicate B = 0.26; z-score, replicate C = 0.37. TRIM26 (tripartite motif containing 26) [SID134311906] gave mean z-score 1.41; z-score, replicate A = 1.38; z-score, replicate B = 1.39; z-score, replicate C = 1.45. LINC00683 (long intergenic non-protein coding RNA 683) [SID134328869] scored mean z-score -1.01; z-score, replicate A = -0.79; z-score, replicate B = -1.39; z-score, replicate C = -0.85. WASF3 (WASP family member 3) [SID134316582] gave mean z-score 1.77; z-score, replicate A = 1.65; z-score, replicate B = 1.65; z-score, replicate C = 2.01. Depletion of RAB40C (RAB40C, member RAS oncogene family) [SID134314940] gave: mean z-score -1.7; z-score, replicate A = -2.07; z-score, replicate B = -1.92; z-score, replicate C = -1.12.

Against LINC00303 (long independently transcribed non-coding RNA 303) [SID134322650], the values are mean z-score 0.52; z-score, replicate A = 0.46; z-score, replicate B = 0.57; z-score, replicate C = 0.53. After knock-down of SATB2 (SATB homeobox 2) [SID134325625], the screen gave mean z-score -1.44; z-score, replicate A = -1.8; z-score, replicate B = -1.86; z-score, replicate C = -0.66. With knock-down of TPM1 (tropomyosin 1) [SID134321745], the screen gave mean z-score -0.25; z-score, replicate A = -0.17; z-score, replicate B = -0.18; z-score, replicate C = -0.4. Depletion of ZC2HC1A (zinc finger C2HC-type containing 1A) [SID134324621] gave: mean z-score -0.12; z-score, replicate A = 0; z-score, replicate B = -0.25; z-score, replicate C = -0.11. ZC3H10 (zinc finger CCCH-type containing 10) [SID134319062] gave mean z-score 0.31; z-score, replicate A = 0.38; z-score, replicate B = 0.22; z-score, replicate C = 0.33. LRRN4CL (LRRN4 C-terminal like) [SID134329274] gave mean z-score 1.02; z-score, replicate A = 0.75; z-score, replicate B = 0.93; z-score, replicate C = 1.38.

LINC02796 (long independently transcribed non-coding RNA 2796) [SID134326995] showed mean z-score 0.13; z-score, replicate A = 0.79; z-score, replicate B = -0.26; z-score, replicate C = -0.13. Silencing of TNNT1 (troponin T1, slow skeletal type) [SID134325766] came out at: mean z-score -0.6; z-score, replicate A = -0.41; z-score, replicate B = -0.86; z-score, replicate C = -0.53. Knock-down of ZBTB22 (zinc finger and BTB domain containing 22) [SID134319841] gave: mean z-score 1.19; z-score, replicate A = 0.93; z-score, replicate B = 1.33; z-score, replicate C = 1.33. NRG1 (neuregulin 1) [SID134310551] scored mean z-score -0.01; z-score, replicate A = -0.17; z-score, replicate B = -0.01; z-score, replicate C = 0.14. For DSG1 (desmoglein 1) [SID134315969], the entry reads mean z-score -0.62; z-score, replicate A = -0.45; z-score, replicate B = -0.82; z-score, replicate C = -0.6. For KPNA4 (karyopherin subunit alpha 4) [SID134321412], the values are mean z-score 1.57; z-score, replicate A = 1.77; z-score, replicate B = 1.72; z-score, replicate C = 1.21.

Depletion of CCDC163 (CCDC163 homolog) [SID134325169] came out at: mean z-score -0.66; z-score, replicate A = -0.72; z-score, replicate B = -0.77; z-score, replicate C = -0.48. Knock-down of SPTSSB (serine palmitoyltransferase small subunit B) [SID134320471] gave: mean z-score -0.27; z-score, replicate A = -0.36; z-score, replicate B = -0.25; z-score, replicate C = -0.2. CCL4 (C-C motif chemokine ligand 4) [SID56479202] showed mean z-score 0.2; z-score, replicate A = -0.21; z-score, replicate B = 0.29; z-score, replicate C = 0.5. IL17RA (interleukin 17 receptor A) [SID134312878] scored mean z-score -0.17; z-score, replicate A = -0.42; z-score, replicate B = -0.04; z-score, replicate C = -0.04. For ADAMTS9 (ADAM metallopeptidase with thrombospondin type 1 motif 9) [SID134311207], the entry reads mean z-score -0.42; z-score, replicate A = -0.16; z-score, replicate B = -0.59; z-score, replicate C = -0.53. Silencing of ETFB (electron transfer flavoprotein subunit beta) [SID134314996] resulted in: mean z-score 0.57; z-score, replicate A = 0.66; z-score, replicate B = 0.46; z-score, replicate C = 0.6.

With knock-down of ZNF429 (zinc finger protein 429) [SID134329770] the results were mean z-score -0.14; z-score, replicate A = -0.01; z-score, replicate B = -0.26; z-score, replicate C = -0.15. After knock-down of ADGRF2P (adhesion G protein-coupled receptor F2, pseudogene) [SID134310975] the results were mean z-score -0.53; z-score, replicate A = -0.56; z-score, replicate B = -0.75; z-score, replicate C = -0.3. TAFA5-AS1 (TAFA5 antisense RNA 1) [SID134329123] showed mean z-score 0.21; z-score, replicate A = 0.22; z-score, replicate B = 0.18; z-score, replicate C = 0.23.
